PubChem BioAssay AID1259414 | Drosophila RNAi Screening Center | 2018
In all, the deposit lists about 24,000 reagents; below is an unselected part of those with a known target gene and a result. Over the whole deposit, about 1,210 (5%) are marked active. 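Inactive calls also include excluded dsRNAs with several or no targets, genes unexpressed in JW18, and well A1, regardless of score.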 A plus sign joins genes that one reagent is predicted to hit.

- Purpose: 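Genome-wide screen for host control of endosymbiont load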 (primary screen)
- Cell system: Drosophila JW18 cells infected with Wolbachia
- Knock-down reagent: long dsRNA against Drosophila genes, 0.25 µg dsRNA per well of a 384-well plate
- Time to read-out: 5 days
- Challenge: cells persistently infected with Wolbachia before knock-down; no added drug
- Read-out: 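Imaged fluorescence in situ signal for Wolbachia 23S rRNA per DAPI-counted host cell, given as a robust z-score within each plate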
- Scale: Wolbachia per cell robust z: higher = more Wolbachia per host cell than the plate typical
- Hit rule: 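Active if absolute robust z reaches 1.5 in two or more of three replicates, leaving out multi- or no-target dsRNAs, genes unexpressed in JW18 and A1 wells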

no.	predicted target	DRSC id	Wolbachia per cell robust z, rep 1	Wolbachia per cell robust z, rep 2	Wolbachia per cell robust z, rep 3	call
1	CG13373	DRSC27059	0.437	0.477	3.13	inactive
2	CG32983	DRSC22367	0.82	-1.56	0.986	inactive
3	Dhx15 (DEAH-box helicase 15)	DRSC06036	1.06	1.12	0.441	inactive
4	Dhx15 (DEAH-box helicase 15)	DRSC30094	1.13	1.32	1.51	inactive
5	Rab8	DRSC11261	1.03	0.991	1.24	inactive
6	Dg (Dystroglycan)	DRSC06718	-1.39	0.0522	-1.95	inactive
7	Zwilch	DRSC15376	1.06	1.14	0.146	inactive
8	CG15673	DRSC04263	0.839	-0.174	0.0142	inactive
9	rnh1 (ribonuclease H1)	DRSC07673	-1.95	0.971	-1.29	inactive
10	CG3092	DRSC04336	-0.566	-6.62	-0.202	inactive
11	CG3092	DRSC30054	0.592	0.424	0.538	inactive
12	CG2017	DRSC12293	0.61	0.16	-0.22	inactive
13	CG10332 + IM18	DRSC04064	-0.243	-0.358	0.468	inactive
14	CG33939	DRSC37922	0.402	-0.147	-7.8	inactive

Only “Wolbachia per cell robust z, rep 1”, for 2 of the entries above:
CG32983 [DRSC22367]: 0.82
Dhx15 (DEAH-box helicase 15) [DRSC06036]: 1.06

Next records:
no.	predicted target	DRSC id	Wolbachia per cell robust z, rep 1	Wolbachia per cell robust z, rep 2	Wolbachia per cell robust z, rep 3	call
15	NAT1	DRSC06854	0.852	-7.36	-8.12	active
16	NAT1	DRSC30053	0.92	0.436	0.826	inactive
17	Nrx-IV (Neurexin IV)	DRSC11238	0.362	-0.162	0.601	inactive
18	Nrx-IV (Neurexin IV)	DRSC40798	-1.74	-0.41	-0.957	inactive
19	FMRFa (FMRFamide)	DRSC07428	0.547	-0.302	-0.726	inactive
20	CG13928	DRSC08397	0.13	0.0618	0.935	inactive
21	SmD3 (Small ribonucleoprotein particle protein SmD3)	DRSC07553	1.16	1.34	0.918	inactive
22	SmD3 (Small ribonucleoprotein particle protein SmD3)	DRSC29356	1.89	1.47	1.74	active
23	CG7530	DRSC16255	0.117	0.944	0.392	inactive
24	CG7530	DRSC25476	0.186	0.406	0.432	inactive
25	Cralbp (Cellular retinaldehyde binding protein)	DRSC41308	0.682	0.821	0.493	inactive
26	CG12057	DRSC17797	0.585	-0.186	-1.11	inactive
27	CG33632	DRSC37817	1.25	-3.19	0.617	inactive
28	CG13022	DRSC09902	-2.89	0.0279	-2.5	inactive
